{"source": "paper PMC11950254", "about": "“Antiviral Susceptibility of Influenza A(H5N1) Clade 2.3.2.1c and 2.3.4.4b Viruses from Humans, 2023–2024” (2025)", "key": {"[1]": {"system": "A/California/07/2009 (H1N1)pdm09, M2-S31N", "conditions": "21 hpi, maximum reduction at M2 blocker concentrations <1 µg/mL, MDCK-SIAT1"}, "[2]": {"system": "A/Cambodia/24020155/2024"}, "[3]": {"system": "A/Wisconsin/53/2009 (H1N1)pdm09"}, "[4]": {"system": "A/Cambodia/KSH230332/2023", "assay": "Virus yield reduction assay", "conditions": "MDCK-SIAT1"}, "[5]": {"system": "A/Chile/25945/2023", "assay": "Virus yield reduction assay", "conditions": "MDCK-SIAT1"}, "[6]": {"system": "A/Michigan/90/2024", "assay": "Virus yield reduction assay", "conditions": "16 hpi; MDCK-SIAT1"}, "[7]": {"system": "A/Texas/37/2024", "assay": "Virus yield reduction assay", "conditions": "MDCK-SIAT1"}, "[8]": {"system": "A/Wisconsin/53/2009 (H1N1)pdm09", "assay": "Virus yield reduction assay", "conditions": "MDCK-SIAT1"}, "[9]": {"system": "A/bald eagle/FL/2022 (H5N1)", "assay": "Virus yield reduction assay", "conditions": "MDCK-SIAT1"}, "[10]": {"system": "Clade 2.3.2.1c viruses, n = 7", "assay": "IRINA (influenza replication inhibition NA-based assay)", "conditions": "early 2023 nonreassortant vs other clade 2.3.2.1c viruses"}, "[11]": {"molecular_target": "NA activity of A/Cambodia/NPH230032/2023 (Influenza A virus, UniProt A0A1L2FNJ6, V129I)"}, "[12]": {"molecular_target": "NA activity of A/Cambodia/2302009/2023 (Influenza A virus, UniProt A0A1L2FNJ6, V129I)"}, "[13]": {"conditions": "21 hpi, maximum reduction at M2 blocker concentrations <1 µg/mL"}}, "note": "Like-named read-outs stand apart in the source and are kept apart here."}
{"compound": "CC(N)C12CC3CC(CC(C3)C1)C2", "note": "(stereo not shown)", "values": [{"measurement": "log reduction in titer", "setting": "[1]; listed as rimantadine", "value": "< 0.2", "unit": "log10"}, {"measurement": "Mean EC50 ±SD", "setting": "[2]", "value": "6.48 ± 1.88", "unit": "ng/mL"}, {"measurement": "Mean EC50 ±SD", "setting": "[3]", "value": "6.48 ± 1.46", "unit": "ng/mL"}, {"measurement": "log reduction in titer", "setting": "[4]; 16 hpi", "value": 2.2, "unit": "log10"}, {"measurement": "log reduction in titer", "setting": "[4]; [13]", "value": 1.8, "unit": "log10"}, {"measurement": "log reduction in titer", "setting": "[5]; 16 hpi", "value": 1.6, "unit": "log10"}, {"measurement": "log reduction in titer", "setting": "[5]; [13]", "value": 0.7, "unit": "log10"}, {"measurement": "log reduction in titer", "setting": "[6]", "value": 5.1, "unit": "log10"}, {"measurement": "log reduction in titer", "setting": "[7]; 16 hpi", "value": 5.5, "unit": "log10"}, {"measurement": "log reduction in titer", "setting": "[7]; [13]", "value": 1.7, "unit": "log10"}, {"measurement": "log reduction in titer", "setting": "[8]; 16 hpi", "value": 3.7, "unit": "log10"}, {"measurement": "log reduction in titer", "setting": "[8]; [13]", "value": 3.1, "unit": "log10"}, {"measurement": "log reduction in titer", "setting": "[8]; 21 hpi, maximum reduction at M2 blocker concentrations <1 µg/mL, listed as rimantadine", "value": "≈ 3.0 log10"}, {"measurement": "log reduction in titer", "setting": "[9]; 16 hpi", "value": 3.5, "unit": "log10"}, {"measurement": "log reduction in titer", "setting": "[9]; [13]", "value": 2.3, "unit": "log10"}]}
{"compound": "O=C(O)[C@H]1C2CCC(CC2)[C@@H]1Nc1nc(-c2c[nH]c3ncc(F)cc23)ncc1F", "values": [{"measurement": "fold lower EC50s of early 2023 clade 2.3.2.1c viruses compared with other viruses from this clade", "setting": "[10]", "value": "≈ 6 fold"}]}
{"compound": "NC12CC3CC(CC(C3)C1)C2", "values": [{"measurement": "log reduction in titer", "setting": "[1]; listed as amantadine", "value": "< 0.2", "unit": "log10"}, {"measurement": "log reduction in titer", "setting": "[4]; 16 hpi", "value": 2.0, "unit": "log10"}, {"measurement": "log reduction in titer", "setting": "[4]; [13]", "value": 1.3, "unit": "log10"}, {"measurement": "log reduction in titer", "setting": "[5]; 16 hpi", "value": 1.2, "unit": "log10"}, {"measurement": "log reduction in titer", "setting": "[5]; [13]", "value": 0.5, "unit": "log10"}, {"measurement": "log reduction in titer", "setting": "[6]", "value": 5.1, "unit": "log10"}, {"measurement": "log reduction in titer", "setting": "[7]; 16 hpi", "value": 3.6, "unit": "log10"}, {"measurement": "log reduction in titer", "setting": "[7]; [13]", "value": 1.1, "unit": "log10"}, {"measurement": "log reduction in titer", "setting": "[8]; 16 hpi", "value": 3.0, "unit": "log10"}, {"measurement": "log reduction in titer", "setting": "[8]; [13]", "value": 3.0, "unit": "log10"}, {"measurement": "log reduction in titer", "setting": "[8]; 21 hpi, maximum reduction at M2 blocker concentrations <1 µg/mL, listed as amantadine", "value": "≈ 3.0 log10"}, {"measurement": "log reduction in titer", "setting": "[9]; 16 hpi", "value": 3.4, "unit": "log10"}, {"measurement": "log reduction in titer", "setting": "[9]; [13]", "value": 2.2, "unit": "log10"}]}
{"compound": "oseltamivir carboxylate", "values": [{"measurement": "IC50", "setting": "[11]", "value": 0.78, "unit": "nM"}, {"measurement": "IC50", "setting": "[12]", "value": 1, "unit": "nM"}]}
